PubChem BioAssay AID624099 – ICCB-Longwood | 2012

Assay: 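Human genes that papillomavirus E2 requires to repress the HPV18 LCR promoter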 (primary screen)
System: human C33A cervical carcinoma cells (HPV-negative) stably expressing BPV1 E2 and an HPV18 LCR luciferase reporter
Reagents: siRNA pool against human genes, 40 nM
Time to read-out: 72 h
Measured: 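Per-well luciferase luminescence, z-scored on each plate against the plate mean and SD with control wells left out, then averaged across three replicate plates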
Direction: mean z-score and z-score: higher = stronger reporter signal, weaker E2 silencing
Active means: 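Mean z ≥ 2 together with z ≥ 2 in two or more of the three replicates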
This is a random part of about 21,000 reagents tested. In the full data, 497 (2.4%) are marked active. 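Higher z means weaker E2 silencing; only reporter increases were scored, and knock-downs that hurt cell survival may mask genuine repressor factors.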

| Gene | mean z-score | z-score, replicate A | z-score, replicate B | z-score, replicate C | call |
| --- | --- | --- | --- | --- | --- |
| BRAP | 1.61 | 1.68 | 1.73 | 1.42 | inactive |
| OR5C1 | 0.29 | 0.53 | 0.09 | 0.25 | inactive |
| CDH15 | -0.53 | -0.9 | -0.41 | -0.28 | inactive |
| LPAR5 | -1.28 | -1.14 | -1.35 | -1.35 | inactive |
| MOSPD1 | 0.47 | 0.65 | 0.54 | 0.21 | inactive |
| SIGLEC17P | -0.39 | -0.38 | -0.15 | -0.66 | inactive |
| SSX2 | -0.66 | -0.53 | -0.64 | -0.81 | inactive |
| NHP2 | 0.26 | 0.16 | 0.35 | 0.27 | inactive |
| SIL1 | -0.78 | -0.73 | -0.71 | -0.9 | inactive |
| LDHC | -0.26 | -0.23 | 0.02 | -0.58 | inactive |
| SETD3 | -0.26 | -0.32 | -0.24 | -0.22 | inactive |
| AP2A1 | 1.27 | 1.4 | 0.88 | 1.52 | inactive |
| DDX25 | -1.02 | -0.58 | -1.15 | -1.33 | inactive |
| PBLD | -0.73 | -1.03 | -1.08 | -0.09 | inactive |
| SPDYE4 | 1.05 | 0.81 | 0.87 | 1.47 | inactive |
| BIVM | -0.8 | -1.12 | -0.69 | -0.59 | inactive |
| SLC9A9 | -0.88 | -1.28 | -1.02 | -0.34 | inactive |
| PLGLA | 1.25 | 1.33 | 1.29 | 1.14 | inactive |
| FPR1 | 0.13 | -0.05 | 0.3 | 0.15 | inactive |
| RPL31P8 | 0.89 | 0.71 | 1.01 | 0.94 | inactive |
| PNPO | -0.67 | -0.82 | -0.9 | -0.28 | inactive |
| DDX39A | 1.57 | 1.44 | 1.7 | 1.56 | inactive |
| LOC389786 (retired record) | -1.17 | -1.39 | -0.79 | -1.32 | inactive |

Next part (4 carried over from the part before).
| Gene | mean z-score | z-score, replicate A | z-score, replicate B | z-score, replicate C | call |
| --- | --- | --- | --- | --- | --- |
| RPL31P8 | 0.89 | 0.71 | 1.01 | 0.94 | inactive |
| PNPO | -0.67 | -0.82 | -0.9 | -0.28 | inactive |
| DDX39A | 1.57 | 1.44 | 1.7 | 1.56 | inactive |
| LOC389786 (retired record) | -1.17 | -1.39 | -0.79 | -1.32 | inactive |
| PAX8 | -0.16 | -0.22 | 0.01 | -0.27 | inactive |
| RPS23 | -1.65 | -1.57 | -1.85 | -1.53 | inactive |
| TRMT13 | 1.34 | 1.46 | 1.57 | 0.98 | inactive |
| PARL | -0.3 | -0.31 | -0.39 | -0.21 | inactive |
| CCDC187 | -0.47 | -0.55 | -0.53 | -0.32 | inactive |
| CARNS1 | -1.47 | -0.73 | -1.2 | -2.47 | inactive |
| ARL14 | -4.88 | -5.05 | -4.86 | -4.73 | inactive |
| NHLRC2 | -0.71 | -0.72 | -0.9 | -0.51 | inactive |
| OGFOD2 | 0.9 | 0.84 | 0.83 | 1.03 | inactive |
| CAPZA3 | -0.84 | -0.73 | -1.09 | -0.7 | inactive |
| TBK1 | -0.03 | 0.17 | 0.03 | -0.28 | inactive |
| COPS4 | -0.06 | 0 | 0 | -0.18 | inactive |
| KNL1 | 0.5 | 0.45 | 0.57 | 0.48 | inactive |
| YIPF4 | 0.01 | -0.18 | 0.14 | 0.08 | inactive |
| C2orf80 | 0.62 | 0.6 | 1.07 | 0.18 | inactive |
| AGPAT3 | 0.02 | 0.1 | -0.28 | 0.24 | inactive |
